Laboratory results: patent US6709851B1, “Stabilization of helicobacter urease” (OraVax-Merieux Co., priority 1997, dated 2004)
Only a part of the results on these compounds is given; other tests are left out.

Amino acid sequences for entries named in this document (tags omitted).
UniProt P69996, whole entry: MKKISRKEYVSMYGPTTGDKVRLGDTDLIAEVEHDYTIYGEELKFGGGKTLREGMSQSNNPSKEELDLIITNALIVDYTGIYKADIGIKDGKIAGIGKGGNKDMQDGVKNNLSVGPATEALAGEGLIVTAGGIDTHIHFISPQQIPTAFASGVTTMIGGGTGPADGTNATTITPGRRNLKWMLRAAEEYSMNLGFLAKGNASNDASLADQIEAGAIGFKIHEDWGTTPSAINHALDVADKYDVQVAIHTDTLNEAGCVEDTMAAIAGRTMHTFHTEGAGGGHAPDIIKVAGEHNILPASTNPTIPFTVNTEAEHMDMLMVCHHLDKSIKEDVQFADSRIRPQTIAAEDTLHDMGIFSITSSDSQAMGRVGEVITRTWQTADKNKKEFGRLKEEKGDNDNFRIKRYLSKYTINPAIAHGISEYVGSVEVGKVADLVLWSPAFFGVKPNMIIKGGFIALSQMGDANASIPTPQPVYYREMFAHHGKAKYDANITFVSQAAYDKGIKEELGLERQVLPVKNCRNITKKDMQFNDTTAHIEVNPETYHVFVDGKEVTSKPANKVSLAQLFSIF
UniProt P14916, whole entry partner: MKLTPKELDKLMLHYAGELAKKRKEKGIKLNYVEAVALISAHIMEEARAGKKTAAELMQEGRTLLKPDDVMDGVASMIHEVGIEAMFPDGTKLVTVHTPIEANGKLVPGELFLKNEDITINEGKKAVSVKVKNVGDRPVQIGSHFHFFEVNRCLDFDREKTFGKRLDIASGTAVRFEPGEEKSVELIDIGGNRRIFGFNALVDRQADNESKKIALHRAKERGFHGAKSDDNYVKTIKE

Target: in vitro activated urease (Helicobacter pylori, UniProt P69996)
Test: Inactivation of in vitro activated urease, phenol broth assay
Assay type: biochemical
Details: 5 mM TNBSA

trinitrobenzene sulfonic acid
effect of TNBSA on in vitro activated urease activity: did not inactivate the enzymatic activity
